Data as given in publication PMC11336141.
“Also recorded” adds a separate entry of the source.

What was measured:
[1] = test system: Dr-sstr2b; assay: PRESTO-Tango β-arrestin recruitment assay, Dr-sstr2b; assay type: cell-based, zebrafish (Danio rerio); details: for pEC50: Dr-sstr2b, Fig. S15D
[2] = test system: Dr-sstr2a; assay: PRESTO-Tango β-arrestin recruitment assay, Dr-sstr2a; assay type: cell-based, zebrafish (Danio rerio); details: for pEC50: Dr-sstr2a, Fig. S15D
[3] = Table S9, additional isolated venom material for #32-20

CC(C)C[C@H](NC(=O)[C@H](CCCNC(=N)N)NC(=O)[C@H](CCC(N)=O)NC(=O)[C@H](CCC(=O)O)NC(=O)[C@@H]1CCCN1C(=O)[C@H](C)NC(=O)[C@@H]1C[C@@H](O)CN1C(=O)[C@@H](NC(=O)[C@@H](NC(=O)[C@H](CC(C)C)NC(=O)[C@H](CC(C)C)NC(=O)[C@@H](NC(=O)[C@H](C)NC(=O)[C@H](CC(=O)O)NC(=O)[C@H](CC(C)C)NC(=O)[C@H](CC(C)C)NC(=O)[C@@H](NC(=O)[C@H](CC(=O)O)NC(=O)[C@@H](NC(=O)[C@@H]1CCC(=O)N1)[C@@H](C)O)C(C)C)[C@@H](C)O)[C@@H](C)O)[C@@H](C)O)C(=O)N[C@@H](Cc1ccccc1)C(=O)N[C@H]1CSSC[C@@H](C(=O)N[C@@H](Cc2c[nH]c3ccccc23)C(=O)N2C[C@H](O)C[C@H]2C(=O)N[C@@H](CCCNC(=N)N)C(=O)N2C[C@H](O)C[C@H]2C(=O)N[C@@H](Cc2ccc(O)cc2)C(=O)N2CCC[C@H]2C(=O)N[C@@H](Cc2c[nH]c3ccccc23)C(N)=O)NC(=O)[C@H](CO)NC(=O)[C@H](CCCCN)NC(=O)[C@@H](Cc2c[nH]c3ccccc23)NC(=O)[C@H](Cc2ccccc2)NC1=O [des-glyco nG1]
pEC50 ([1]; replicate 1): 8.461 | pEC50 ([1]; replicate 2): 7.949 | pEC50 ([1]; replicate 3): 8.77 | pEC50 ([1]; replicate 4): 8.8 | pEC50 ([1]; replicate 5): 9.741 | pEC50 ([1]; replicate 6): 9.322 | Hill Slope ([1]; Table S9): 0.53 ± 0.10 | Span ± S.E.M. ([1]; Table S9): 96.18 ± 8.60 | pEC50 ± S.E.M. [1, 3]: 8.71 ± 0.14 | Emax ± S.E.M. ([1]; Table S9, relative to SS-14): 92.57 ± 3.75% | pEC50 ([2]; replicate 1): 6.189 | pEC50 ([2]; replicate 2): 6.158 | pEC50 ([2]; replicate 3): 6.79 | pEC50 ([2]; replicate 4): 6.732 | pEC50 ([2]; replicate 5): 6.812 | pEC50 ([2]; replicate 6): 6.765 | activation of Dr-sstr2a in words ([2]; PRESTO-Tango, HTLA cells, listed as Des-glyco nG1): partial agonist at Dr-sstr2a; also recorded: only partially rescued the potent activation of the Dr-sstr2a | Hill Slope ([2]; Table S9): 0.95 ± 0.13 | Span ± S.E.M. ([2]; Table S9): 65.90 ± 4.87 | EC50 [2, 3]: 296 nM | Emax ± S.E.M. ([2]; Table S9, relative to SS-14): 68.55 ± 4.56%
